Drawing on PubChem BioAssay AID1637 (Sanford-Burnham Center for Chemical Genomics, 2009), this text covers Kd for one compound.

The entries are a selection whose mix differs from that of the whole data set. Activity calls are given as the source filed them. The rule behind the calls is not given here.

This assay can be described thus: NMR binding screen, influenza A RNA promoter, Kd (AID 1637). The settings on record: NMR binding to influenza A RNA promoter.
For `Cc1c2non([O-])c-2c(C)[n+](=O)[n+]1[O-]`, the Kd is inactive: > 4 mM.

As usually defined, the Kd is the equilibrium constant for the complex coming apart.
